Compound potency records, mixed from different reports. Data source: NIAID ChemDB in PubChem.

All rows: tests in culture; species: Hepatitis C virus; read by: luciferase / reporter gene; measure: EC50

Neighbouring rows are from separate reports.

structure	cells	strain or isolate	mutations	value
C[C@@]1(O)[C@H](O)[C@@H](CO)O[C@H]1c1cnc2c(=O)[nH]c(N)nn12	Huh7	-	-	>100 µM
C[C@@]1(O)[C@H](O)[C@@H](CO)O[C@H]1n1cnc2c(N)ncnc21	-	1b	-	0.4468 µM
COC(=O)C(C)(C)NP(=O)(OC[C@H]1O[C@@H](c2ccc3c(N)ncnn23)[C@](C)(O)[C@@H]1O)Oc1cccc2ccccc12	Huh7	-	-	4.9 µM
COc1ccc2c(c1)c(/C=C(\C)C(=O)Nc1ccc(C(C)(C)C)cc1)cn2CCN(C)C	Huh7.5	2a J6/JFH-1	-	>100 µM
NC(=O)c1nc(C#CCc2ccccc2F)n(COCCO)n1	Huh 5-2	-	-	20 µg/mL
CN(C)[C@@H](C(=O)N1CCC[C@H]1C(=O)Cc1ccc(-c2ccc(NC(=O)[C@@H]3CCCN3C(=O)[C@@H](c3ccccc3)N(C)C)cc2)cc1)c1ccccc1	Huh7.5.1	GT2a	-	0.0023 µM
Cc1ccc(CC#Cc2nc(C(N)=O)nn2COCCO)cc1	Huh 5-2	-	-	16 µg/mL
CCOC(=O)[C@H](C)NP(=O)(OC[C@H]1O[C@@H](c2cnc3c(=O)[nH]c(N)nn23)[C@](C)(O)[C@@H]1O)Oc1cccc2ccccc12	Huh7	-	-	>50 µM
C/C(=C\c1cn(Cc2ccccc2)c2ccc(C#N)cc12)C(=O)Nc1ccc(C(C)(C)C)cc1	Huh7.5	2a J6/JFH-1	-	>100 µM
Nc1cc(-c2cc(=O)c3c(O)cc(O)cc3o2)ccc1N1CCN(c2ncccn2)CC1	Huh-Luc-Neo	1b	-	>20 µM
CC(C)(C)c1ccc(NC(=O)/C(F)=C\c2c[nH]c3ccccc23)cc1	Huh7.5	2a J6/JFH-1	-	4.7 µM
COC(=O)N[C@H](C(=O)N1CCC[C@H]1C(=O)Cc1ccc(-c2ccc(NC(=O)[C@@H]3CCCN3C(=O)[C@@H](NC(=O)OC)C(C)C)cc2)cc1)C(C)C	Huh7.5.1	GT2a	-	0.12 µM
O=C(N[C@@H](C(=O)N1CCC[C@H]1c1ncc(-c2ccc(-c3ccc(-c4cnc([C@@H]5CCCN5C(=O)[C@H](NC(=O)C5CC5)c5ccccc5)s4)cc3)cc2)s1)c1ccccc1)C1CC1	Huh7.5	genotype 2a	Y93N	0.0518 µM
COc1ccc2c(c1)c(/C=C(\C)C(=O)Nc1ccc(C(C)(C)C)cc1)cn2C(=O)c1ccccc1	Huh7.5	2a J6/JFH-1	-	>100 µM
NC(=O)c1nc(C#CCCCCCl)n(COCCO)n1	Huh 5-2	-	-	>50 µg/mL
C/C(=C\c1cn(CCN2CCOCC2)c2ccc(C#N)cc12)C(=O)Nc1ccc(C(C)(C)C)cc1	Huh7.5	2a J6/JFH-1	-	25 µM
NC(=O)c1nc(C#CCC2(O)CCCCC2)n(COCCO)n1	Huh 5-2	-	-	>50 µg/mL
CC(C)C(=O)N1C(=O)C2(CCC2)[C@@H]2[C@@H]1CCN2C(=O)[C@@H](NC(=O)NC1CCCC1)C(C)C	-	1b	-	0.301 µM
CC(=O)n1cc(/C=C(\C)C(=O)Nc2ccc(C(C)(C)C)cc2)c2cc(C#N)ccc21	Huh7.5	2a J6/JFH-1	-	0.98 µM
COC(=O)C(C)(C)NP(=O)(OC[C@H]1O[C@@H](c2cnc3c(=O)[nH]c(N)nn23)[C@](C)(O)[C@@H]1O)Oc1cccc2ccccc12	Huh7	-	-	>50 µM
COc1cc(O)c2c(=O)cc(-c3ccc(N4CCN(c5ccccn5)CC4)c(N)c3)oc2c1	Huh-Luc-Neo	1b	-	>20 µM
COC(=O)N[C@@H](C)C(=O)N1CCC[C@H]1C(=O)Cc1ccc(-c2ccc(NC(=O)[C@@H]3CCCN3C(=O)[C@H](C)NC(=O)OC)cc2)cc1	Huh7.5.1	GT2a	-	>1 µM
CCCCCOC(=O)Nc1ncnn2c([C@@H]3O[C@H](CO[P@@](=O)(N[C@@H](C)C(=O)OC(C)C)Oc4ccccc4)[C@@H](O)[C@@]3(C)O)ccc12	Huh7	-	-	>100 µM
CCCCCc1ccc(CC#Cc2nc(C(N)=O)nn2COCCO)cc1	Huh 5-2	-	-	22 µg/mL
COC(=O)N[C@@H](C(=O)N1CCC[C@H]1C(=O)Cc1ccc(-c2ccc(NC(=O)[C@@H]3CCCN3C(=O)[C@H](NC(=O)OC)c3ccccc3)cc2)cc1)c1ccccc1	Huh7.5.1	GT2a	-	0.00026 µM
COc1cccc2c1c(/C=C(\C)C(=O)Nc1ccc(C(C)(C)C)cc1)cn2C(=O)OCc1ccccc1	Huh7.5	2a J6/JFH-1	-	14.2 µM
Nc1cc(-c2cc(=O)c3c(O)cc(O)cc3o2)ccc1N1CCN(c2ccccn2)CC1	Huh-Luc-Neo	1b	-	>20 µM
NC(=O)c1nc(C#CCc2ccc(C(F)(F)F)cc2)n(COCCO)n1	Huh 5-2	-	-	5 µg/mL
CC(C)CN(C[C@@H](O)[C@H](Cc1ccccc1)NC(=O)O[C@H]1CCOC1)S(=O)(=O)c1ccc(N)cc1	-	1b	-	0.3103 µM
C/C(=C\c1cn(CCN2CCOCC2)c2ccccc12)C(=O)Nc1ccc(C(C)(C)C)cc1	Huh7.5	2a J6/JFH-1	-	7.9 µM

A second listing of 3 rows from above:

structure,cells,strain or isolate,mutations,value
NC(=O)c1nc(C#CCc2ccccc2F)n(COCCO)n1,Huh 5-2,-,-,20 µg/mL
COC(=O)N[C@@H](C)C(=O)N1CCC[C@H]1C(=O)Cc1ccc(-c2ccc(NC(=O)[C@@H]3CCCN3C(=O)[C@H](C)NC(=O)OC)cc2)cc1,Huh7.5.1,GT2a,-,>1 µM
COc1ccc2c(c1)c(/C=C(\C)C(=O)Nc1ccc(C(C)(C)C)cc1)cn2C(=O)c1ccccc1,Huh7.5,2a J6/JFH-1,-,>100 µM

ECn is the concentration giving n% inhibition of infection, replication or growth. Blank or dashed fields: not listed here.